Test results: the supplement of paper PMC9931576
Human monoclonal antibodies against the spike receptor-binding domain (heavy:light variable regions). IC50 against pseudoviruses bearing the spike of naturally observed variants; lower = stronger; >10 µg/ml means not reached at the top dose. No active / inactive call. The stated detection limit is 0.0005 µg/ml; values near or below 0.001 µg/ml lie at the floor of the assay.

B1: BD55-6384 (protein)
chain 1: QVQLVESGGGVVQPGRSLRLSCAVSGFTFRNYAIHWVRQAPGKGLEWVAAMSYDGNDQYYPDSVKGRFTISRDNSRNTLFLQMNNLRAEDTAVYYCAKVEGAYCSGGDCLVAAFDYWGPGTLVSVSS
chain 2: EIVLTQSPGTLSLSPGERATLSCRASQSVSSNYLAWYQQKPGQAPRLLMSFTSSRATGIPDRFSGSGSGTVFTLTITRLEPEDFAVYYCQQYGTSPLTFGGGTKVEIK
B2: BD55-6401 (protein)
chain 1: QVQLVQSGSELKKPGASVKVSCKTSGYIFTNYAINWVRQAPGQGLEWMGWIDTNTGNPTSARDFTGRFVFSLDTSVSTAYLQINGLEPEDTAVYYCARADRNYFGYERFDIWGQGTMVIVSS
chain 2: DIQMTQSPSSLSASVGDRVTITCRASQSISDYVNWYQQKPGKAPKVLIYAASNLQSGVPSRFSGRGSGTDFTLTITSLQPEDFATYYCQQTYSSHLLSFGGGTKLEIK
B3: BD55-6379 (protein)
chain 1: QVQLVQSGTEVKKPGSSVKVSCRASGGTLNTYAFNWVRQAPGQGLEWVGRIFPTPGIADYAQKFQGRVTITADKSTSAGYMELRSLSHEDTAVYYCARAPPRGYSGYDLLGNDPFDIWGQGTMVTVSS
chain 2: QSVLTQPPSVSGAPGQRVTISCTGSSSNIGAGYDVHWYQHVPGTAPKLLIYGNNNRPSGVPDRFSGSKSGTSGSLAITGLQPDDEADYYCQSYDTSLSGSYVFGTGTKVTVL
B4: BD55-6356 (protein)
chain 1: EVQLLESGGDLVQPGGSLRLSCAASRFTFSSYAMTWVRQAPGKGLEWVSTISGDGASTFYPDSVKGRFTISRDNSKNTLYLQMNSLRAEDTAVYYCAKSPIPPSDSSGYYWIDENDAFDIWGQGTMVTVSS
chain 2: QAVVTQEPSLTVSPGGTVTLTCGSSIGAVTSGHYPYWFQQKPGQAPRTLIYDTWNKHSWTPARFSGSLLGGKAALTLSGAQPEDEAEYYCLLSYSGAREWVFGGGTKLTVI
B5: BD55-6392 (protein)
chain 1: EVQLLESGGGLVQPGGSLRLSCAASGFSFSGYAMSWVRQAPGKGLELVSTISSSGTKTYYADSVKGRFAISRENSKNTLFLQMNSLRAEDTAVYYCAKEEGGGWPGFDHWGQGALVTVSS
chain 2: QSVLTQPPSASGTPGQRVTISCSGSVYNIGNNFVYWYQQLPGTAPKLLIYRNDQRPSGVPDRFSGSKSGTSASLAISGLRPEDEADYYCAAWDDSLRVFGGGTKLTVL
B6: BD55-6374 (protein)
chain 1: EVQLVESGGGLVQPGGSLRLSCAASGFSFSGSAMHWVRQAPGKGLEYVSSITSDGGGTFYADSVKGRFTISRDNSKKTLYLQMGSLRADDIGVYYCAREGPYVFLTLDSWGQGTLVTVSS
chain 2: DIQMTQSPSSLSASVGDRVTITCRASQNINGYLNWYQQKPGKGPKLLIYAASTLESGVPSRFSGSGSGTEFTLTISSLQPEDFATYYCQQSYVTPLYTFGQGTKLEIK
B7: BD55-6375 (protein)
chain 1: EVQLVQSGAEVKKPGESLKISCKGSGHNFIVYWIAWVRQMPGKGLEWMGIIYPGDSETKYSPSFQGQVTISADKSINTAYLQWSSLKASDTAIYYCATAGGWLGDSFDFWGQGTLVTVSS
chain 2: EIVLTQSPGTLSLSPGERATLSCRASQSITRSYLAWYQQKPGQAPRLLIYGASSRATGIPDRFSGSGSGTDFTLTIRRLEPDDVAVYYCQQYGGSPLTFGGGTKVEIK
B8: BD55-6363 (protein)
chain 1: QVQLVESGGGLVKPGGSLRLSCAASGFTFSDYYMSWIRQAPGKGLEWVSYISGSGSIQDYPDSVKGRFTVSRDNTKNSLYLQMNSLRAEDTAVYYCARGTKSQYYYDESGYSTQYWGQGTLVTVSS
chain 2: DVVMTQSPLSLPVTLGQPASISCRSSQSLVYADGSTYLNWFYQRPGQSPRRLIYRVSDRDSGVPDRFSGSGSGTDFTLKISRVEAEDVGIYYCMQGTHWPPTFGQGTKLEIK
B9: BD55-6355 (protein)
chain 1: QVQLQESGPGLVKASETLSLTCNVSGSSLSSFHWSWIRQSAGKGLEWIGLIYISGSTTYNPSLKSRVSMSLDTSNKQFSLKLASVTAADTAIYYCARGYCGSTNCYGWFDPWGQGTLVTVSS
chain 2: DIQMTQSPSTLSASVGDRVTITCRASQSISSWLAWYQQKPGKAPKLLIYKASSLESGVPSRFSGSGSGTEFTLTITSLQPDDFATYYCQQYKSYWTFGQGTKVEIK
B10: BD55-6398 (protein)
chain 1: QVPLQESGPGLVKPSETLSLTCTVSGGSINSYYWNWIRQAPGKGLEWIGNIYYSGSTSYNPSLKSRVTISVDTSKNQFSLKLTSVTAADTAVYYCARGGFYDPYYFDSWGQGTLVTVSS
chain 2: SFELTQPPSVSVSPGQTARITCSANALPMQYAYWYQQKPGQAPVLVIYKDIERASGIPERFSGSSSGATVTLTISGVQAEDEADYYCQSPDSSGSYVVFGGGTKVTVL
B11: BD55-6386 (protein)
chain 1: QVQLVESGGGVVQPGRSLTLSCAASGFTFSLYAIHWVRQAPGKGLEWVAVISHDVTNKYYADSVKGRFTISRDSSKNTVFLQMNSLRAEDSAVYYCAIRGGSGAVDRGYYFDYWGQGTLVTVSS
chain 2: DIQMTQSPSSLSASVGDRVTITCRASQTISTYLNWYQQKPGKAPKLLIYGASSLRSGVPSRFSGSGSGTDFTLTISSLQREDFATYYCQQSYNTRPLTFGAGTKVEIK
B12: BD55-6368 (protein)
chain 1: EVQLVESGGGLVKPGGSLRLSCAASGFTFSTFSMHWVRQAPGKGLEWVSSISGRSSLNFYADSVKGRFTISRDNAKNSLFLQMNSLRAEDTAVYYCARESSDVYNVNFDYWGQGTLVTVSS
chain 2: DIQMTQSPSSLSASVGDRVTITCRASQTIRNYLNWYQQKPGKAPKLLVYAASSLHSGVPSRFSGSGSGTDFTLTISSLQPEDFATYYCQQGYISPQATFGPGTKVEIK

The binders below were run against SARS-CoV-2 Omicron BA.1 spike pseudovirus (assay: pseudovirus neutralization IC50; higher = weaker neutralization).
Procedure: (§1)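 Single-round VSV luciferase pseudovirus mixed with antibody dilutions for 1 h and put on Huh-7 cells for about a day; IC50 from the dose curve.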
B1 was tested, and the “pseudovirus neutralization IC50” value was > 10 µg/mL. With B2 the “pseudovirus neutralization IC50” value was 1.55 µg/mL. For B3, the “pseudovirus neutralization IC50” value was > 10 µg/mL. B4 was tested, and the “pseudovirus neutralization IC50” value was > 10 µg/mL. For B5, the “pseudovirus neutralization IC50” value was > 10 µg/mL. In the case of B6, the “pseudovirus neutralization IC50” value is reported as 6.66 µg/mL. With B7 the “pseudovirus neutralization IC50” value was > 10 µg/mL. B8 was tested, and the “pseudovirus neutralization IC50” value was 2.73 µg/mL. In the case of B9, the “pseudovirus neutralization IC50” value is reported as > 10 µg/mL. In the case of B10, the “pseudovirus neutralization IC50” value is reported as > 10 µg/mL. For B11, the “pseudovirus neutralization IC50” value was > 10 µg/mL. B12 was tested, and the “pseudovirus neutralization IC50” value was > 10 µg/mL.

The binders below were run against SARS-CoV-2 Omicron BA.2 spike pseudovirus in the same assay as above.
Procedure: as §1
For B1, the “pseudovirus neutralization IC50” value was > 10 µg/mL. With B2 the “pseudovirus neutralization IC50” value was 1.34 µg/mL. In the case of B3, the “pseudovirus neutralization IC50” value is reported as > 10 µg/mL. For B4, the “pseudovirus neutralization IC50” value was > 10 µg/mL. In the case of B5, the “pseudovirus neutralization IC50” value is reported as > 10 µg/mL. With B6 the “pseudovirus neutralization IC50” value was 4.47 µg/mL. For B7, the “pseudovirus neutralization IC50” value was > 10 µg/mL. B8 was tested, and the “pseudovirus neutralization IC50” value was 2.16 µg/mL. For B9, the “pseudovirus neutralization IC50” value was > 10 µg/mL. With B10 the “pseudovirus neutralization IC50” value was > 10 µg/mL. For B11, the “pseudovirus neutralization IC50” value was > 10 µg/mL. For B12, the “pseudovirus neutralization IC50” value was > 10 µg/mL.

Each binder was assayed against SARS-CoV-2 Omicron BA.2.75 spike pseudovirus in the same assay as above.
Procedure: as §1
For B1, the “pseudovirus neutralization IC50” value was > 10 µg/mL. B2 was tested, and the “pseudovirus neutralization IC50” value was 1.08 µg/mL. In the case of B3, the “pseudovirus neutralization IC50” value is reported as > 10 µg/mL. For B4, the “pseudovirus neutralization IC50” value was > 10 µg/mL. B5 was tested, and the “pseudovirus neutralization IC50” value was > 10 µg/mL. In the case of B6, the “pseudovirus neutralization IC50” value is reported as 3.22 µg/mL. In the case of B7, the “pseudovirus neutralization IC50” value is reported as > 10 µg/mL. B8 was tested, and the “pseudovirus neutralization IC50” value was 2.65 µg/mL. B9 was tested, and the “pseudovirus neutralization IC50” value was > 10 µg/mL. B10 was tested, and the “pseudovirus neutralization IC50” value was > 10 µg/mL. B11 was tested, and the “pseudovirus neutralization IC50” value was > 10 µg/mL. In the case of B12, the “pseudovirus neutralization IC50” value is reported as > 10 µg/mL.

Each binder was assayed against SARS-CoV-2 Omicron BA.5 spike pseudovirus in the same assay as above.
Procedure: as §1
B1 was tested, and the “pseudovirus neutralization IC50” value was > 10 µg/mL. For B2, the “pseudovirus neutralization IC50” value was 2.01 µg/mL. For B3, the “pseudovirus neutralization IC50” value was > 10 µg/mL. For B4, the “pseudovirus neutralization IC50” value was > 10 µg/mL. B5 was tested, and the “pseudovirus neutralization IC50” value was > 10 µg/mL. With B6 the “pseudovirus neutralization IC50” value was 5.64 µg/mL. With B7 the “pseudovirus neutralization IC50” value was > 10 µg/mL. With B8 the “pseudovirus neutralization IC50” value was 3.61 µg/mL. For B9, the “pseudovirus neutralization IC50” value was > 10 µg/mL. In the case of B10, the “pseudovirus neutralization IC50” value is reported as > 10 µg/mL. In the case of B11, the “pseudovirus neutralization IC50” value is reported as > 10 µg/mL. B12 was tested, and the “pseudovirus neutralization IC50” value was > 10 µg/mL.

What follows are binders tested against SARS-CoV-2 Omicron BQ.1.1 spike pseudovirus in the same assay as above.
Procedure: as §1
With B1 the “pseudovirus neutralization IC50” value was > 10 µg/mL. With B2 the “pseudovirus neutralization IC50” value was 1.53 µg/mL. B3 was tested, and the “pseudovirus neutralization IC50” value was > 10 µg/mL. For B4, the “pseudovirus neutralization IC50” value was > 10 µg/mL. With B5 the “pseudovirus neutralization IC50” value was > 10 µg/mL. For B6, the “pseudovirus neutralization IC50” value was 3.08 µg/mL. In the case of B7, the “pseudovirus neutralization IC50” value is reported as > 10 µg/mL. For B8, the “pseudovirus neutralization IC50” value was 3.57 µg/mL. B9 was tested, and the “pseudovirus neutralization IC50” value was > 10 µg/mL. With B10 the “pseudovirus neutralization IC50” value was > 10 µg/mL. B11 was tested, and the “pseudovirus neutralization IC50” value was > 10 µg/mL. In the case of B12, the “pseudovirus neutralization IC50” value is reported as > 10 µg/mL.

Each binder was assayed against SARS-CoV-2 Omicron XBB spike pseudovirus in the same assay as above.
Procedure: as §1
In the case of B1, the “pseudovirus neutralization IC50” value is reported as > 10 µg/mL. In the case of B2, the “pseudovirus neutralization IC50” value is reported as 2.54 µg/mL. B3 was tested, and the “pseudovirus neutralization IC50” value was > 10 µg/mL. For B4, the “pseudovirus neutralization IC50” value was > 10 µg/mL. B5 was tested, and the “pseudovirus neutralization IC50” value was > 10 µg/mL. With B6 the “pseudovirus neutralization IC50” value was 4.91 µg/mL. B7 was tested, and the “pseudovirus neutralization IC50” value was > 10 µg/mL. In the case of B8, the “pseudovirus neutralization IC50” value is reported as 4.12 µg/mL. For B9, the “pseudovirus neutralization IC50” value was > 10 µg/mL. In the case of B10, the “pseudovirus neutralization IC50” value is reported as > 10 µg/mL. In the case of B11, the “pseudovirus neutralization IC50” value is reported as > 10 µg/mL. In the case of B12, the “pseudovirus neutralization IC50” value is reported as > 10 µg/mL.

The binders below were run against SARS-CoV-2 early D614G spike pseudovirus in the same assay as above.
Procedure: as §1
B1 was tested, and the “pseudovirus neutralization IC50” value was > 10 µg/mL. For B2, the “pseudovirus neutralization IC50” value was 7.52 µg/mL. With B3 the “pseudovirus neutralization IC50” value was 0.0816 µg/mL. For B4, the “pseudovirus neutralization IC50” value was > 10 µg/mL. In the case of B5, the “pseudovirus neutralization IC50” value is reported as 0.384 µg/mL. In the case of B6, the “pseudovirus neutralization IC50” value is reported as 6.37 µg/mL. B7 was tested, and the “pseudovirus neutralization IC50” value was 4.24 µg/mL. B8 was tested, and the “pseudovirus neutralization IC50” value was 2.82 µg/mL. With B9 the “pseudovirus neutralization IC50” value was > 10 µg/mL. B10 was tested, and the “pseudovirus neutralization IC50” value was > 10 µg/mL. B11 was tested, and the “pseudovirus neutralization IC50” value was 0.0615 µg/mL. B12 was tested, and the “pseudovirus neutralization IC50” value was > 10 µg/mL.
